{"source": "paper PMC4014563", "about": "“A High-Throughput Method to Examine Protein-Nucleotide Interactions Identifies Targets of the Bacterial Transcriptional Regulatory Protein Fur”", "target": "T1, Fur (ferric uptake regulator) (Neisseria gonorrhoeae F62) (UniProt Q51008)", "T1 sequence (looked up, limits assumed)": "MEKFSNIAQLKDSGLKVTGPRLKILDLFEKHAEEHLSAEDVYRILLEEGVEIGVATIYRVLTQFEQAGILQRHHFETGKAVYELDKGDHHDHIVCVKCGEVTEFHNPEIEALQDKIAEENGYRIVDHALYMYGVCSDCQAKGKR", "assay": "competition with a labelled probe", "conditions": "cold fur competitor 50-1000x against fur, NGO0073 and NGO0101 probes (EMSA); 5' amino-C6 on strand 1 (IRIS); 20 mM Tris-Cl pH 7.9, 5 mM MgCl2, 40 mM KCl, 0.125 mM MnCl2, 2 mM DTT, 10% glycerol, 0.19 ug/uL poly dIdC (EMSA also 3.125 ug/uL BSA), RT; IRIS 2 hr; recombinant protein; label: surface-immobilized (IRIS), 32P (EMSA)", "note": "Construct, isoform or probe ends are uncertain for at least one entry. At least one verdict was read from the data and is not stated in words by the source. Where a protein sequence is shown, tags need not be part of it.", "data": [{"sequence": "CTGCTTGAATATTTTATAAAAGCGAACGATAATCATACGCTTAAGCGGT (double strand) [fur promoter Fur box probe]", "values": [{"measurement": "binding result", "result": "binds"}]}]}
